A mixed list of measured activities; the numbers were collected in NIAID ChemDB.

Shared fields: growth or infection tests; agent: Candida albicans; endpoint: MIC

Lines come from different laboratories, so protocols vary.

structure,strain,result
Cc1cccc2c(=O)n([C@H](C)[C@](O)(Cn3cncn3)c3ccc(F)cc3F)cnc12,60 strains,0.15 µg/mL
CCCCCOc1ccc(-c2ccc(-c3ccc(C(=O)N[C@H]4CCCNC(=O)[C@@H]5C[C@H](NC(=O)OC)CN5C(=O)[C@H]([C@@H](C)O)NC(=O)[C@H](CCc5ccc(O)cc5)NC(=O)[C@@H]5C[C@@H](O)CN5C(=O)[C@H]([C@@H](C)O)NC4=O)cc3)cc2)cc1,ATCC 62376,0.39 µg/mL
Nc1ncnc2c1ncn2[C@@H]1O[C@H](C(=O)O)[C@@H](NC(=O)C(N)Cc2ccc(Cl)cc2)[C@H]1O,FP633,6.2 µg/mL
COc1cccc2c(=O)n([C@H](C)[C@](O)(Cn3cncn3)c3ccc(F)cc3F)cnc12,406 strains,1.25 µg/mL
Cc1c(Sc2ccccc2)[n+](=O)c2cc(Cl)ccc2n1[O-],Clinical isolate 16,15.6 µg/mL
CCCCCOc1ccc(-c2ccc(-c3ccc(C(=O)N[C@H]4CCCNC(=O)[C@@H]5[C@H](N)CCN5C(=O)[C@H]([C@@H](C)O)NC(=O)[C@H](CCc5ccc(O)cc5)NC(=O)[C@@H]5C[C@@H](O)CN5C(=O)[C@H]([C@@H](C)O)NC4=O)cc3)cc2)cc1,ATCC 38247,0.39 µg/mL
Cc1[nH]cnc1CSC[C@@H](N)C(=O)N[C@H]1[C@@H](O)[C@H](n2cnc3c(N)ncnc32)O[C@@H]1C(=O)O,FP633,3.1 µg/mL
C[C@@H](O)[C@@H]1NC(=O)[C@H](CCc2ccc(O)cc2)NC(=O)[C@@H]2C[C@@H](O)CN2C(=O)[C@H]([C@@H](C)O)NC(=O)[C@@H](NC(=O)c2ccc(N3CCNCC3)cc2)CCCNC(=O)[C@@H]2C[C@H](N)CN2C1=O,ATCC 38247,>100 µg/mL
COc1cc(O)c2c(c1)C(=O)c1c(cc3c(c1O)-c1c(cc(C)c(C(=O)NC(CO)C(=O)O)c1O)[C@H](OC1OC(C)C(O)C(OC4OCC(O)C(O)C4O)C1O)C3O)C2=O,SC14059 (azole-resistant),4 µg/mL
CCCCCOc1ccc(-c2ccc(-c3ccc(C(=O)N[C@H]4CCCNC(=O)C5[C@@H](O)CN5C(=O)C(C(C)O)NC(=O)C(CCc5ccc(O)cc5)NC(=O)C5C[C@@H](O)CN5C(=O)C(C(C)O)NC4=O)cc3)cc2)cc1,ATCC 10231,0.39 µg/mL
Clc1ccc(C(Cn2ccnc2)OCc2ccc(-c3ccccc3)cc2)cc1,CA7,128 µg/mL
CCCCCOc1ccc(-c2ccc(-c3ccc(C(=O)N[C@H]4CCCNC(=O)C5C[C@H](NC6CCNCC6)CN5C(=O)C(C(C)O)NC(=O)C(CCc5ccc(O)cc5)NC(=O)C5C[C@@H](O)CN5C(=O)C(C(C)O)NC4=O)cc3)cc2)cc1,ATCC 62376,0.39 µg/mL
Cc1ccc(C(Cn2ccnc2)OCc2ccc(C(C)(C)C)cc2)cc1,CA12,>128 µg/mL
Cc1c(S(=O)(=O)c2ccccc2)[n+](=O)c2cc(Cl)ccc2n1[O-],Clinical isolate 22,31.25 µg/mL
CCCCCC12CCC(C(=O)N[C@H]3CCCNC(=O)C4C[C@H](N)CN4C(=O)C(C(C)O)NC(=O)C(CCc4ccc(O)cc4)NC(=O)C4C[C@@H](O)CN4C(=O)C(C(C)O)NC3=O)(CC1)CC2,ATCC 62376,3.12 µg/mL
CCCCCOc1ccc(-c2ccc(-c3ccc(C(=O)N[C@H]4CCCNC(=O)[C@@H]5[C@@H](O)CCN5C(=O)[C@H]([C@@H](C)O)NC(=O)[C@H](CCc5ccc(O)cc5)NC(=O)[C@@H]5C[C@@H](O)CN5C(=O)[C@H]([C@@H](C)O)NC4=O)cc3)cc2)cc1,ATCC 38247,0.78 µg/mL
CC(C)N=C(N)c1ccc2nc(-c3ccc4c(c3)Cc3cc(-c5nc6ccc(C(N)=NC(C)C)cc6[nH]5)ccc3-4)[nH]c2c1,Isolate 1866,1.56 µg/mL
C[C@@H](O)[C@@H]1NC(=O)[C@H](CCc2ccc(O)cc2)NC(=O)[C@@H]2C[C@@H](O)CN2C(=O)[C@H]([C@@H](C)O)NC(=O)[C@@H](NCC2CCCCC2)CCCNC(=O)[C@@H]2C[C@H](N)CN2C1=O,ATCC 62376,0.2 µg/mL
CCCCCCCCOc1ccc(N2CCN(c3ccc(C(=O)N[C@H]4CCCNC(=O)C5C[C@H](N)CN5C(=O)C(C(C)O)NC(=O)C(Cc5ccc(C=O)cc5)NC(=O)C5CCCN5C(=O)C(C(C)O)NC4=O)cc3)CC2)cc1,ATCC 62376,25 µg/mL
Nc1ncnc2c1ncn2[C@@H]1O[C@H](C(=O)O)[C@@H](NC(=O)[C@@H](N)Cc2ccccc2)[C@H]1O,FP633,3.1 µg/mL
CCCCCCCCON1CCN(c2ccc(-c3ccc(C(=O)N[C@H]4CCCNC(=O)C5C[C@H](N)CN5C(=O)C(C(C)O)NC(=O)C(CCc5ccc(O)cc5)NC(=O)C5C[C@@H](O)CN5C(=O)C(C(C)O)NC4=O)cc3)cc2)CC1,ATCC 62376,0.2 µg/mL
C[C@@H](c1nc(-c2ccc(C#N)cc2)cs1)[C@](O)(Cn1cncn1)c1ccc(F)cc1F,76 strains,0.07 µg/mL
Clc1ccc(C(Cn2ccnc2)OC/C=C/c2ccccc2)cc1,CA2,128 µg/mL
CCCCCOc1ccc(-c2ccc(-c3ccc(C(=O)N[C@H]4CCCNC(=O)[C@@H]5CCCCN5C(=O)[C@H]([C@@H](C)O)NC(=O)[C@H](CCc5ccc(O)cc5)NC(=O)[C@@H]5C[C@@H](O)CN5C(=O)[C@H]([C@@H](C)O)NC4=O)cc3)cc2)cc1,ATCC 62376,6.25 µg/mL
CCCCCOc1ccc(-c2ccc(-c3ccc(C(=O)N[C@H]4CCCNC(=O)C5C[C@H](N)CN5C(=O)C(CCC[N+](C)(C)C)NC(=O)C(CCc5ccc(O)cc5)NC(=O)C5C[C@@H](O)CN5C(=O)C(C(C)O)NC4=O)cc3)cc2)cc1,ATCC 10231,0.39 µg/mL
Cc1c(O)cccc1C(=O)N[C@@H](CSc1ccccc1)[C@H](O)CN1C[C@H]2CCCC[C@H]2C[C@H]1C(=O)NC(C)(C)C,I119C,>64 µg/mL
COc1cc2ncn([C@H](C)[C@](O)(Cn3cncn3)c3ccc(F)cc3F)c(=O)c2cc1OC,406 strains,0.63 µg/mL
Cc1ccc(C(Cn2ccnc2)OCc2cccc3ccccc23)cc1,CA7,>128 µg/mL
O[C@](Cn1cncn1)(Cn1cnc(/C=C/c2ccc(OCC(F)(F)C(F)F)cc2)n1)c1ccc(F)cc1F,Isolate I1-39,2 µg/mL
CCCCCOc1ccc(-c2ccc(-c3ccc(C(=O)N[C@H]4CCCNC(=O)[C@@H]5C[C@H](N=C(N)N)CN5C(=O)[C@H]([C@@H](C)O)NC(=O)[C@H](CCc5ccc(O)cc5)NC(=O)[C@@H]5C[C@@H](O)CN5C(=O)[C@H]([C@@H](C)O)NC4=O)cc3)cc2)cc1,ATCC 62376,0.39 µg/mL
Nc1ncnc2c1ncn2[C@@H]1O[C@H](C(=O)NCCCC(N)C(=O)O)[C@@H](NC(=O)[C@H](N)CSCc2ccccc2)[C@H]1O,FP633,>100 µg/mL
CCCCCOc1ccc(-c2ccc(-c3ccc(C(=O)N[C@H]4CCCNC(=O)C5C[C@H](N)CN5C(=O)C(Cc5cnc[nH]5)NC(=O)C(CCc5ccc(O)cc5)NC(=O)C5C[C@@H](O)CN5C(=O)C(C(C)O)NC4=O)cc3)cc2)cc1,ATCC 62376,0.78 µg/mL
CC(C)(C)c1ccc(COC(Cn2ccnc2)c2ccc(Cl)cc2Cl)cc1,CA6,64 µg/mL
C[C@@H](n1cnc2cccc(F)c2c1=O)[C@](O)(Cn1cncn1)c1ccc(F)cc1F,76 strains,20 µg/mL
CCOc1cc2c(cc1F)n([O-])c(C)c(Cl)[n+]2=O,Clinical isolate 15,62.5 µg/mL
CCCCCOc1ccc(-c2ccc(-c3ccc(C(=O)N[C@H]4CCCNC(=O)[C@@H]5C[C@H](N)CN5C(=O)[C@H](CCCN=C(N)N)NC(=O)C(CCc5ccc(O)cc5)NC(=O)[C@@H]5C[C@@H](O)CN5C(=O)[C@H]([C@@H](C)O)NC4=O)cc3)cc2)cc1,ATCC 10231,0.39 µg/mL
CCCCCCCCOc1ccc(C(=O)NC2C[C@@H](O)[C@@H](O)NC(=O)C3[C@@H](O)[C@@H](C)CN3C(=O)C(C(C)O)NC(=O)C([C@H](O)[C@@H](O)c3ccc(O)cc3)NC(=O)C3C[C@@H](O)CN3C(=O)C(C(C)O)NC2=O)cc1,MY1783,0.5 µg/mL
O=[n+]1c(Sc2ccccc2)c(CBr)n([O-])c2ccccc21,Clinical isolate 9,31.25 µg/mL
CC(=O)Nc1nc(CSC[C@@H](N)C(=O)N[C@H]2[C@@H](O)[C@H](n3cnc4c(N)ncnc43)O[C@@H]2C(=O)O)ns1,FP633,25 µg/mL
Cc1c(S(=O)(=O)c2ccccc2)[n+](=O)c2ccccc2n1[O-],Clinical isolate 2,31.25 µg/mL
CC(/C=C/C=C(\C)C(O)C(C)C(=O)O[C@H]1C[C@@H](C)C=C2C=C[C@]3(C)O[C@@H](O)CC(=O)[C@]3(C)[C@H]21)=C\C=C\C(=O)O,AC3409,0.78 µg/mL
CCCCCCCCCCCCCCCCCC(=O)NC1CC(O)C(O)NC(=O)C2C(O)C(C)CN2C(=O)C(C(C)O)NC(=O)C(C(O)C(O)c2ccc(O)cc2)NC(=O)C2CC(O)CN2C(=O)C(C(C)O)NC1=O,MY1783,1 µg/mL

4 of the rows above, restated:

structure	strain	result
CCCCCCCCOc1ccc(N2CCN(c3ccc(C(=O)N[C@H]4CCCNC(=O)C5C[C@H](N)CN5C(=O)C(C(C)O)NC(=O)C(Cc5ccc(C=O)cc5)NC(=O)C5CCCN5C(=O)C(C(C)O)NC4=O)cc3)CC2)cc1	ATCC 62376	25 µg/mL
CCCCCC12CCC(C(=O)N[C@H]3CCCNC(=O)C4C[C@H](N)CN4C(=O)C(C(C)O)NC(=O)C(CCc4ccc(O)cc4)NC(=O)C4C[C@@H](O)CN4C(=O)C(C(C)O)NC3=O)(CC1)CC2	ATCC 62376	3.12 µg/mL
Nc1ncnc2c1ncn2[C@@H]1O[C@H](C(=O)O)[C@@H](NC(=O)C(N)Cc2ccc(Cl)cc2)[C@H]1O	FP633	6.2 µg/mL
CCCCCOc1ccc(-c2ccc(-c3ccc(C(=O)N[C@H]4CCCNC(=O)[C@@H]5C[C@H](NC(=O)OC)CN5C(=O)[C@H]([C@@H](C)O)NC(=O)[C@H](CCc5ccc(O)cc5)NC(=O)[C@@H]5C[C@@H](O)CN5C(=O)[C@H]([C@@H](C)O)NC4=O)cc3)cc2)cc1	ATCC 62376	0.39 µg/mL